Source: patent US20090176776A1, “SMALL MOLECULE INHIBITORS OF HIV-1 CAPSID ASSEMBLY” (UNIVERSITY OF ALABAMA AT BIRMINGHAM, priority 2005, published 2009)

Legend:
Format in all cases: cell-based
HIV-1NL43 [1] = assay: Anti-HIV assay (single round), p24 production by pNL43-transfected cells (ELISA); conditions: 293T cells; TC50/IC50
Experimental: (§1) Anti-HIV Assays (Single Round). The inhibitory effect of the compounds on virus production and infectivity were determined by measuring the level of p24 produced in the presence of various concentrations of compounds from HEK-293 cells transiently transfected with pNL43 and by titering the virus on TZM-b1 cells. Briefly, 2.5×10^5 HEK-293 cells/ml were transfected with pNL43 using FuGene 6. Four hours post transfection the cells were plated in 96-well plates containing 100 μl of various concentrations of compounds (0-75 μM or 0-300 μM for mock transfected cells) in triplicate. At 72-hours post transfection virus supernatant was collected and stored at −80° C. until analysis. The level of p24 produced at each compound concentration was determined relative to the level produced in the presence of the DMSO only controls using HIV-1 p24 enzyme-linked immunosorbent assay (ELISA) (Beckman-Coulter). To determine the infectivity of the virus produced TZM-b1 cells were plated at 1×10^5 cells/ml in 100 μL in 96-well plates overnight. The next day, the media was replaced with 75 μL DMEM supplemented with 1% FBS, 1× PSG and 40 μg/ml DEAE Dextran and 25 μL of viral supernatant from the HEK-293 cells was added to each well. Three hours later 100 μL of DMEM with 7% FBS was added to each well. Two days after infection the cells were lysed and the level of luciferase expression was determined using the Bright-Glo assay.
(§2) FIGS. 12-18 show the anti-HIV assays for the examples of chemical compounds used according to the invention. After in-vitro assay, the chemical compounds in FIGS. 12-18 were selected for screening for cell viability and toxicity. Jurkat cells assay was used as screening assay. In Jurkat cells assay, JLTRG-R5 cells were used as Indicator cells and MOLT4 cells as Producer cells of NL43 and BAL virus. 96 chemical compounds were plated at seven different concentration from 75 μM to 0 μM at three-fold serial dilutions in 384 well plate. After five days, GFP expression was read. Cell viability was monitored with Alamar Blue assay. Luc M7 assay was designed to measure inhibitory activity of the chemical compounds to viral replication. After infection of cells with YU2 virus, plate cells in 96-well plate in the presence of six concentration of compounds in DMSO. At day 6, the number of cells in wells were read with Cell Titer Glo kit or by counting the number of cells infected with Bright Glo kit. 293T cells assay was designed to determine the toxicity. 293T cells were transfected with NL43. After four hours, transfected cells were plated in 96-well plate in DMSO and 2 μM Indinavir. 72 hours later, viral supernatant was collected and plated on JC53BL. Luciferase expression was measure after two days and p24 analysis was conducted with 1:1000 and 1:2000 dilutions.

HIV-1YU2 = assay: Anti-HIV assay (multiple round), luciferase expression in Luc-M7 cells; conditions: TC50/IC50
Experimental: Anti-HIV Assays (Multiple Round). The inhibitory effects of the tested compounds on HIV-1YU2 replication were determined by the level of luciferase expression after 6 days of infection using Bright-Glo assay (Promega). An amount of 1.5×10^4 Luc-M7 (a gift from Ned Landau) cells per ml were infected with HIV-1YU2 at a multiplicity of infection (MOI) of 3. The HIV-1 infected ([…] compound) or mock-infected (0-300 μM compound) Luc-M7 cells were placed in 96-well culture plates (100 μl/well) with 100 μl of various concentrations of the compounds with 20 μg/ml DEAE Dextran in triplicate and incubated at 37° C. under 5% CO2 at 100% humidity. After 6 days, cell viability was quantified by Cell-Titer Glo assay (Promega). […] On day 5 cell viability was determined in the mock-infected cells. FIGS. 12-18 show the anti-HIV assays for the examples of chemical compounds used according to the invention. After in-vitro assay, the chemical compounds in FIGS. 12-18 were selected for screening for cell viability and toxicity. Jurkat cells assay was used as screening assay. […] After five days, GFP expression was read. Cell viability was monitored with Alamar Blue assay. Luc M7 assay was designed to measure inhibitory activity of the chemical compounds to viral replication. After infection of cells with YU2 virus, plate cells in 96-well plate in the presence of six concentration of compounds in DMSO. At day 6, the number of cells in wells were read with Cell Titer Glo kit or by counting the number of cells infected with Bright Glo kit. 293T cells assay was designed to determine the toxicity. 293T cells were transfected with NL43. After four hours, transfected cells were plated in 96-well plate in DMSO and 2 μM Indinavir. 72 hours later, viral supernatant was collected and plated on J[…].

HIV-1NL43 [2] = assay: Anti-HIV assay (single round), infectivity of virus produced, titered on TZM-b1 cells; conditions: 293T cells; TC50/IC50
Experimental: as §1, §2

COc1ccc(NS(=O)(=O)c2ccc(Br)cc2)cc1OC [Compound 14]
TI - p24 (HIV-1NL43 [1]): 1.62

Cc1ncc(C[n+]2csc(CCOC(=O)C3C4CC5CC(C4)CC3C5)c2C)c(N)n1.Cl.[Cl-] (centres unmarked) [Compound 26]
TI - p24 (HIV-1NL43 [1]): 3.21

CCc1ccc(OCCCCCn2ccnc2)cc1 [Compound 58]
TI (HIV-1YU2): 145.00
TI - infectivity (HIV-1NL43 [2]): 0.50
TI - p24 (HIV-1NL43 [1]): 2.96

Cc1ccc(S(=O)(=O)NN=Cc2cc(Br)cc(Br)c2O)cc1 [Compound 73]
TI - infectivity (HIV-1NL43 [2]): 5.58
TI - p24 (HIV-1NL43 [1]): 2.55

CCN(CC)c1ccc(C=Nc2ccc(Sc3ccc([N+](=O)[O-])cc3)cc2)cc1 [Compound 70]
TI (HIV-1YU2): 62.93
TI - infectivity (HIV-1NL43 [2]): 4.11
TI - p24 (HIV-1NL43 [1]): 2.00

O=C(O)c1ccc2c(c1)C1C=CCC1C(c1ccc([N+](=O)[O-])cc1)N2 (centres unmarked) [Compound 41]
TI (HIV-1YU2): 31.33

Cc1nc2ccccc2n1Cc1ccc(Br)cc1 [Compound 18]
TI - infectivity (HIV-1NL43 [2]): 0.21
TI - p24 (HIV-1NL43 [1]): 5.06

Cc1cc(F)ccc1NCc1ccccn1 [Compound 16]
TI (HIV-1YU2): 3.74

O=[N+]([O-])c1c(Cl)cc(O)c2c1C1C=CCC1C(c1ccc(Br)cc1)N2 (centres unmarked) [Compound 25]
TI - infectivity (HIV-1NL43 [2]): 9.83
TI - p24 (HIV-1NL43 [1]): 16.7

O=C(O)c1ccc2c(c1)C1C=CCC1C(c1cccc([N+](=O)[O-])c1)N2 (centres unmarked) [Compound 59]
TI (HIV-1YU2): 18.69

CCOC(=O)c1c(N2C(=O)C=CC2=O)sc2c1CCCC2 [Compound 8]
TI (HIV-1YU2): 2.08

O=C(O)C(S)Cc1ccc(Cl)cc1 (centres unmarked) [Compound 47]
TI - infectivity (HIV-1NL43 [2]): 5.91
TI - p24 (HIV-1NL43 [1]): 8.21

CC(=NNC(=O)C(O)c1ccccc1)c1ccc2c(c1)CCCC2 (centres unmarked) [Compound 6]
TI (HIV-1YU2): 2.39

Nc1nc(-c2ccccc2Cl)cs1 [Compound 15]
TI (HIV-1YU2): 2.98

CC(C)(C)c1ccc(OCCN2CCOCC2)cc1 [Compound 60]
TI (HIV-1YU2): 17.95
